PubChem BioAssay AID624099 | ICCB-Longwood – 2012
Here is an unselected part of about 21,000 deposited reagents. Over the whole deposit, 497 (2.4%) are marked active. 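Higher z means weaker E2 silencing; only reporter increases were scored, and knock-downs that hurt cell survival may mask genuine repressor factors.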

Screen: 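Host factors E2 relies on to silence an HPV18 LCR reporter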 (primary screen)
System: human C33A cervical carcinoma cells (HPV-negative) stably expressing BPV1 E2 and an HPV18 LCR luciferase reporter
Reagents: siRNA pool against human genes, 40 nM
Duration: 72 h
Read-out: 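Per-well luciferase luminescence, z-scored on each plate against the plate mean and SD with control wells left out, then averaged across three replicate plates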
Scale: mean z-score and z-score: higher = stronger reporter signal, weaker E2 silencing
Active means: 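Mean z ≥ 2 together with z ≥ 2 in two or more of the three replicates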

target,mean z-score,"z-score, replicate A","z-score, replicate B","z-score, replicate C",Call
PTP4A3,-1.47,-1.35,-1.65,-1.41,inactive
RCVRN,-0.28,-0.33,-0.32,-0.2,inactive
RPL28,-0.18,-0.32,-0.06,-0.14,inactive
ZKSCAN4,-2.27,-2.07,-2.82,-1.92,inactive
PRM2,0.81,0.95,0.72,0.75,inactive
SUN1,-0.76,-0.78,-0.81,-0.67,inactive
CCR4,-1.21,-1.29,-1.06,-1.28,inactive
TNIP3,-0.92,-0.72,-1.05,-0.98,inactive
DDX53,0.72,0.81,0.51,0.84,inactive
LOC400740 (retired record),2.2,2.39,2.08,2.11,active
CMTR1,-0.3,-0.44,-0.06,-0.4,inactive
DBNDD2,0.44,0.54,0.1,0.67,inactive
ASH2L,-1.82,-1.73,-1.92,-1.79,inactive
GALNS,-0.29,-0.06,-0.25,-0.56,inactive
AIP,-0.93,-0.73,-0.93,-1.13,inactive
HMOX2,-1.65,-1.76,-1.7,-1.49,inactive
C6orf15,-0.7,-0.43,-0.65,-1.01,inactive
CCT3,0.5,0.67,0.48,0.37,inactive
POLD1,-0.31,-0.13,-0.32,-0.47,inactive
RPL29P33,1.31,1.5,0.97,1.48,inactive
GFI1,-1.4,-1.91,-1.1,-1.19,inactive
CDK15,0.39,0.44,0.55,0.19,inactive
XIRP1,-0.56,-0.49,-0.76,-0.41,inactive
SGCB,0.27,0.27,0.28,0.25,inactive
TMEM254,0.4,0.77,0.31,0.12,inactive
CDR2,-0.31,-0.46,-0.1,-0.36,inactive
GPR20,1.03,0.85,1.05,1.19,inactive
MFN2,0.36,0.43,0.36,0.3,inactive
SH3GL1,-0.16,-0.18,0,-0.3,inactive
ENSA,1.13,1.49,0.92,0.98,inactive
KAT14,1.29,1.36,1.53,0.99,inactive
SDF2,1.42,1.18,1.43,1.66,inactive
BAIAP3,0.83,0.37,0.89,1.23,inactive
LOC154449,0.43,0.23,0.61,0.46,inactive
ROGDI,0.88,1.02,0.47,1.14,inactive
OR6C4,0.41,0.38,0.65,0.19,inactive
KAT6A,-0.74,-0.88,-0.62,-0.72,inactive
NHP2,0.26,0.16,0.35,0.27,inactive
SP140L,0.36,0.14,0.45,0.49,inactive

Part of the list above, reformatted.
{"target": "BAIAP3", "mean z-score": 0.83, "z-score, replicate A": 0.37, "z-score, replicate B": 0.89, "z-score, replicate C": 1.23, "Call": "inactive"}
{"target": "LOC154449", "mean z-score": 0.43, "z-score, replicate A": 0.23, "z-score, replicate B": 0.61, "z-score, replicate C": 0.46, "Call": "inactive"}
